These results are taken from paper PMC12406258, “Uncovering the Unusual Inhibition Mechanism of a Trypanosome Alternative Oxidase Inhibitor Displaying Broad-Spectrum Activity against African Animal Trypanosomes” (Journal of Medicinal Chemistry, 2025).

Molecules are shown by their SMILES.

Format in all cases: cell-based
The subject of data set [1] is T. b. brucei WT (s427) trypomastigotes. Particulars: RF = EC50 (in the presence of glycerol)/EC50 (without glycerol). As for the experimental part: (§1) Other Trypanosoma species used in this study include T. evansi AntTat 3/3 (Wild-type); and T. equiperdum BoTat 1 (Bordeaux trypanozoon antigenic type 1) P (wild-type). All the trypanosomes were used only as bloodstream trypomastigotes and cultured in the standard Hirumi’s Modified Iscove’s medium #9 (HMI-9), supplemented with 10% heat-inactivated Fetal Bovine Serum (FBS), 14 μL/L β-mercaptoethanol, and 3.0 g sodium hydrogen carbonate per liter of medium (pH 7.4). Trypanosomes were cultured in vented flasks at 37 °C in a 5% CO2 atmosphere.
(§2) Briefly, this protocol involves preparing a 96-well cell culture plate with a 100 μL serially diluted test compound (200 μM top concentration) in HMI-9 + 10% FBS (24 wells per control drug or test compound, with the 24th well serving as drug-free). This is followed by adjusting the cell density of mid-log-phase trypanosome cultures to the required concentration of 2 × 10^5 cells/mL (2 × 10^4 cells/well). […] All incubations were carried out at 37 °C with 5% CO2. […] EC50 values were calculated using GraphPad Prism 9.0 software via nonlinear regression with an equation for a sigmoidal dose–response curve with variable slope (GraphPad Software Inc., San Diego, CA, USA).

In a further data set the test system is T. b. brucei SUR10. The note with it: resistance factor relative to T. b. brucei wild type.
In a further data set the test system is T. brucei aqp1-3 null. The note with it: resistance factor relative to T. b. brucei wild type. As for the experimental part:
as §1, §2

The next data set relates to T. brucei B48. Particulars: resistance factor relative to T. b. brucei wild type. As to the method:
as §1, §2

Turning to `N=C(N)c1ccc(/N=N/Nc2ccc(C(=N)N)cc2)cc1` [Dim., Diminazene aceturate], the “T. b. brucei WT (+5 mM glycerol) RF” value in data set [1] was determined as 1.15.
With `Cc1ccc(C(=O)Nc2ccc(S(=O)(=O)O)c3cc(S(=O)(=O)O)cc(S(=O)(=O)O)c23)cc1NC(=O)c1cccc(NC(=O)Nc2cccc(C(=O)Nc3cc(C(=O)Nc4ccc(S(=O)(=O)O)c5cc(S(=O)(=O)O)cc(S(=O)(=O)O)c45)ccc3C)c2)c1` [Suramin, reference compound], the “SUR10 RF” value with T. b. brucei SUR10 was determined as 21.1.
As to `Cc1cc(O)ccc1C(=O)OCCCCCCCCCCCCCC[P+](c1ccccc1)(c1ccccc1)c1ccccn1.[Br-]` [Compound 1, {14-[(4-Hydroxy-2-methylbenzoyl)-oxy]-tetradecyl}-diphenyl(pyridin-2-yl)-Phosphonium Bromide], the “SUR10 RF” value in the data set on T. b. brucei SUR10 was 1.14. In addition, the “aqp1-3 null RF” value with T. brucei aqp1-3 null is on record as 0.38. In data set [1], the “T. b. brucei WT (+5 mM glycerol) RF” value amounted to 0.45. For the same molecule, the “T. brucei B48 RF” value in the data set on T. brucei B48 stood at 0.8.
In the case of `N=C(N)c1ccc(OCCCCCOc2ccc(C(=N)N)cc2)cc1` [Pent., Pentamidine isethionate], in the data set on T. brucei aqp1-3 null, the “aqp1-3 null RF” value turned out to be 12.1. Besides, in data set [1], the “T. b. brucei WT (+5 mM glycerol) RF” value worked out at 1.49. The “T. brucei B48 RF” value with T. brucei B48 is given as 243.
